Key:
CT antibodies = assay type: binding
BT antibodies = assay type: binding; details: BT 5 ng/ml; HAS 10 micrograms/ml

HAS: human serum albumin, an inert protein
conductance response to injection (CT antibodies): No response was observed | conductance response to injection (BT antibodies): No response was observed

— patent US8232584B2 (priority 2005, dated 2012)
